PubChem BioAssay AID1224833, University of Georgia | 2016
Assay: 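Host factors restraining rotavirus as candidate antiviral genes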 (primary screen). Cell system: monkey MA104 kidney cells. Reagent: siRNA pool against human genes, 50 nM. Duration: 48 h knock-down before infection; read 24 h after infection. Treatment: infection with rotavirus strain RV3 two days after transfection; infectious dose for this stage not given. Detection: 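z-score of rotavirus antigen signal per well, from a fluorescent immunoassay, relative to non-targeting control wells on the same plate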. Scale: z-score vs non-targeting control: higher = more rotavirus replication than with non-targeting control. Call rule: In these data the active calls have z-score vs non-targeting control at about -1 or lower, or at about 1 or higher. Calls: active = z-score beyond 1 either way; inactive = z-score within 1 of zero.
Here is an unselected part of about 12,000 reagents. Of all reagents, about 5,600 (46%) got an active call. 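Active calls cover z-scores past 1 in both directions, so they include lowered as well as raised rotavirus replication.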

gene | z-score vs non-targeting control | call
WASHC2C (GeneID 253725) | -1.69 | active
BLTP3B (GeneID 23074) | -1.13 | active
MTCL3 (GeneID 387104) | 0.447 | inactive
IZUMO2 (GeneID 126123) | -1.45 | active
KCTD1 (GeneID 284252) | -1.32 | active
SKOR1 (GeneID 390598) | -1.19 | active
SALL2 (GeneID 6297) | 2.16 | active
MCM8 (GeneID 84515) | -1.88 | active
FADS3 (GeneID 3995) | -1.27 | active
UGT1A8 (GeneID 54576) | -1.7 | active
KIF2C (GeneID 11004) | -0.899 | inactive
DSC1 (GeneID 1823) | -0.826 | inactive
NCAPH2 (GeneID 29781) | -0.463 | inactive
TIPRL (GeneID 261726) | -0.86 | inactive
SWSAP1 (GeneID 126074) | -0.837 | inactive
LY96 (GeneID 23643) | -0.827 | inactive
LAGE3 (GeneID 8270) | -0.0753 | inactive
TMUB1 (GeneID 83590) | 0.426 | inactive
SKIC3 (GeneID 9652) | -0.593 | inactive
ELF1 (GeneID 1997) | 0.239 | inactive
GRHL3 (GeneID 57822) | 0.561 | inactive
S100B (GeneID 6285) | 0.454 | inactive
USP40 (GeneID 55230) | -0.679 | inactive
SPATA19 (GeneID 219938) | 0.292 | inactive
SLC7A2 (GeneID 6542) | -1.27 | active
ZNF280D (GeneID 54816) | -2.47 | active
OR4F4 (GeneID 26682) | -1.96 | active

Copied from the listing, 4 entries:
gene | z-score vs non-targeting control | call
FADS3 (GeneID 3995) | -1.27 | active
UGT1A8 (GeneID 54576) | -1.7 | active
KIF2C (GeneID 11004) | -0.899 | inactive
DSC1 (GeneID 1823) | -0.826 | inactive

Further results follow.
gene | z-score vs non-targeting control | call
YLPM1 (GeneID 56252) | 0.642 | inactive
ZNF627 (GeneID 199692) | -0.205 | inactive
PABIR3 (GeneID 159091) | 2.68 | active
RAB31 (GeneID 11031) | -1.75 | active
LRRC1 (GeneID 55227) | 0.187 | inactive
KRTAP4-11 (GeneID 653240) | -0.0877 | inactive
CUX2 (GeneID 23316) | -1.19 | active
IFT88 (GeneID 8100) | 0.817 | inactive
FCN2 (GeneID 2220) | -0.194 | inactive
SHANK1 (GeneID 50944) | 0.216 | inactive
MMP9 (GeneID 4318) | 1.45 | active
CYP4F8 (GeneID 11283) | 0.663 | inactive
RPL3 (GeneID 6122) | -0.283 | inactive
GPS2 (GeneID 2874) | -0.651 | inactive
ZNF254 (GeneID 9534) | -1.34 | active
PRMT9 (GeneID 90826) | -1.51 | active
CDCA4 (GeneID 55038) | -0.21 | inactive
ATXN1 (GeneID 6310) | 0.925 | inactive
